Measured data: PubChem BioAssay AID504761 (Drosophila RNAi Screening Center, 2011)
The deposit covers about 22,000 reagents; this is a random part of those that have a named target and a result. Of all reagents, 116 (0.52%) got an active call. 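Calls depend on retest data that are not deposited; infection was ranked per plate without normalising between plates; the unit of the infection score is not given.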 A number with no mark means an inactive call. Reagents against one gene are numbered here. Names joined by + are all predicted targets of the reagent. Not all columns of the deposit are shown. Reagent sequences are not shown. Not given: the amount of reagent, the time to read-out.

Purpose: 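Insect host genes that dengue virus relies on to spread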 (primary screen)
Cell system: D.Mel-2 cells from Drosophila
Reagent: long dsRNA against Drosophila genes
Challenge: infection with dengue virus type 2; dose and infection time not stated
Read-out: 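Per well on two replicate plates, imaging gave the percent of cells positive for viral envelope protein, ranked by infection, and a nuclear count of cells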
Reading the numbers: infection score: higher = more virus-infected cells
Hit rule: 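Very low infection ranking in both replicate wells (chance probability at most 0.065), then a retest showing infection dropped 1.5-fold or more at p below 0.05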
Meaning of the calls: active = confirmed: knock-down lowers infection; inactive = not picked or not confirmed

| gene | reagent | infection score, replicate 1 | infection score, replicate 2 |
| --- | --- | --- | --- |
| Obp56c (Odorant-binding protein 56c) | 1 | 12.1 | 2.98 |
| Obp56c (Odorant-binding protein 56c) | 2 | 1.9 | 2.97 |
| Obp56c (Odorant-binding protein 56c) | 3 | 27.2 | 18.4 |
| CG14907 + Mettl4 | 1 | 4.12 | 5.33 |
| CG14907 + Mettl4 | 2 | 3.73 | 3.22 |
| CG15651 | 1 | 7.5 | 7.27 |
| Gycalpha99B (Guanylyl cyclase alpha-subunit at 99B) | 1 | 2.68 | 4.15 |
| Gycalpha99B (Guanylyl cyclase alpha-subunit at 99B) | 2 | 1.6 | 1.96 |
| CG13454 | 1 | 6.17 | 3.25 |
| CG10465 | 1 | 9.59 | 20.8 |
| CG1387 | 1 | 2.5 | 3.73 |
| Syt7 (Synaptotagmin 7) | 1 | 1.22 | 13.3 |
| Syt7 (Synaptotagmin 7) | 2 | 0.44 | 15.3 |
| CG30291 | 1 | 0.45 | 0.98 |
| CG14721 | 1 | 21.4 | 6.93 |
| CG9269 | 1 | 1.05 | 17.1 |
| fd96Cb (forkhead domain 96Cb) | 1 | 5.06 | 0.21 |
| fd96Cb (forkhead domain 96Cb) | 2 | 0.64 (active) | 0.45 |
| Adf1 (Adh transcription factor 1) | 1 | 1.14 | 0.33 |
| Adf1 (Adh transcription factor 1) | 2 | 22.5 | 21.9 |
| Grip84 (Gamma-tubulin ring protein 84) | 1 | 16.9 | 21.1 |
| Grip84 (Gamma-tubulin ring protein 84) | 2 | 19.5 | 10.1 |
| Obp83g (Odorant-binding protein 83g) | 1 | 3.51 | 6.35 |
| Obp83g (Odorant-binding protein 83g) | 2 | 20.1 | 9.49 |
| Atat (alpha-tubulin acetylase) | 1 | 14.8 | 15.3 |
| Fum4 (Fumarase 4) | 1 | 1.39 | 4.38 |
| Fum4 (Fumarase 4) | 2 | 1.78 | 3.26 |
| CG1416 | 1 | 9 | 25.7 |
| Ntmt (N-terminal methyltransferase) | 1 | 1.88 | 6.36 |
| Ntmt (N-terminal methyltransferase) | 2 | 2.07 | – |
| CG7747 | 1 | 7.84 | 9.25 |
| CG7747 | 2 | 20.9 | 16.2 |
| msopa (male-specific opa containing gene) | 1 | 0.53 | 3.35 |

Laid out differently: entries from further up.
gene | reagent | infection score, replicate 1 | infection score, replicate 2
fd96Cb (forkhead domain 96Cb) | 1 | 5.06 | 0.21
fd96Cb (forkhead domain 96Cb) | 2 | 0.64 (active) | 0.45
Adf1 (Adh transcription factor 1) | 1 | 1.14 | 0.33
Adf1 (Adh transcription factor 1) | 2 | 22.5 | 21.9
Grip84 (Gamma-tubulin ring protein 84) | 1 | 16.9 | 21.1
Grip84 (Gamma-tubulin ring protein 84) | 2 | 19.5 | 10.1

Additional entries:
| gene | reagent | infection score, replicate 1 | infection score, replicate 2 |
| --- | --- | --- | --- |
| CG6153 | 1 | 17.7 | 11.8 |
| CG11211 | 1 | 6.79 | 11.9 |
| Tpl94D (Transition protein-like 94D) | 1 | 0.06 | 0.93 |
| lawc (retired record) | 1 | 2.43 | 13 |
| ATP6AP2 (ATPase H+ transporting accessory protein 2) | 1 | 1.64 | 1.08 |
| dila (dilatory) | 1 | 3.81 | 7.82 |
| dila (dilatory) | 2 | 0.64 | 3.94 |
| dlt (discs lost) | 1 | 2.78 | 1.54 |
| dlt (discs lost) | 2 | 4.89 | 4.72 |
| CG1316 | 1 | 2.43 | 1.04 |
| twin | 1 | 5.98 | 2.58 |
| twin | 2 | 5.65 | 2.69 |
| twin | 3 | 1.71 | 2.06 |
| twin | 4 | 13.4 | 19.5 |
| CG31386 (retired record) | 1 | 0.4 | 6.94 |
| CG31386 (retired record) | 2 | 1.01 | 3.72 |
| CG9452 | 1 | 1.04 | 6.84 |
| CG9452 | 2 | 0.83 | 24 |
| CG11672 | 1 | 6.46 | 7.67 |
| CG5849 | 1 | 9.49 | 0.62 |
| pb (proboscipedia) | 1 | 0.76 | 0.91 |
| pb (proboscipedia) | 2 | 3.65 | 7.46 |
| pb (proboscipedia) | 3 | 1.77 | 4.47 |
| CG15642 | 1 | 4.03 | 1.4 |
| CG15642 | 2 | – | 5.96 |
